# Reference: PMC6385310 (Scientific Reports, 2019)
# Test system: VEEV TC-83 virus expressing a luciferase reporter gene (TC-83-luc)
# Assay type: cell-based, Venezuelan equine encephalitis virus
SMILES,"SI, selectivity index (CC50/EC50)","P3 ratio, EC50 of ketone analogue/EC50 of dioxolane analogue"
"C/C=C\[C@]1(O)CC[C@H]2[C@@H]3CCC4=CC(=O)CCC4=C3[C@@H](c3ccc(N(C)C)cc3)C[C@@]21C [Compound 7, Aglepristone, reference compound]",>3.95,
"CN(C)c1ccc([C@H]2C[C@@]3(C)[C@@H](CC[C@@]3(O)C#CC(F)(F)F)[C@@H]3CCC4=CC(=O)CCC4=C32)cc1 [Compound 9, Trifluoromethylmifepristone]",,0.64
CN(C)c1ccc([C@H]2C[C@@]3(C)[C@@H](CC[C@@]3(O)C#C[Si](C)(C)C)[C@@H]3CCC4=CC(=O)CCC4=C32)cc1 [Compound 33],,0.77
CC[Si](C#C[C@]1(O)CC[C@H]2[C@@H]3CCC4=CC(=O)CCC4=C3[C@@H](c3ccc(N(C)C)cc3)C[C@@]21C)(CC)CC [Compound 34],,0.91
CC(C)[Si](C#C[C@]1(O)CC[C@H]2[C@@H]3CCC4=CC(=O)CCC4=C3[C@@H](c3ccc(N(C)C)cc3)C[C@@]21C)(C(C)C)C(C)C [Compound 35],,0.74
CN(C)c1ccc([C@H]2C[C@@]3(C)[C@@H](CC[C@@]3(O)C#Cc3ccccc3)[C@@H]3CCC4=CC(=O)CCC4=C32)cc1 [Compound 38],,1.18
COc1ccc(C#C[C@]2(O)CC[C@H]3[C@@H]4CCC5=CC(=O)CCC5=C4[C@@H](c4ccc(N(C)C)cc4)C[C@@]32C)cc1 [Compound 39],,3.06
COc1ccc(C2C[C@@]3(C)[C@@H](CC[C@@]3(O)C#C[Si](C)(C)C)[C@@H]3CCC4=CC(=O)CCC4=C23)cc1 (stereo partly shown) [Compound 51],,3.21
C[C@]12C[C@H](c3ccc(-c4ccccc4)cc3)C3=C4CCC(=O)C=C4CC[C@H]3[C@@H]1CC[C@@]2(O)C#C[Si](C)(C)C [Compound 53],,1.56
CN(C)c1cccc([C@H]2C[C@@]3(C)[C@@H](CC[C@@]3(O)C#C[Si](C)(C)C)[C@@H]3CCC4=CC(=O)CCC4=C32)c1 [Compound 54],,0.80
